{"sequences": {"note": "Protein sequences, listed by entry. Tags and fused reporters are not part of them.", "UniProt Q01827, whole entry P314T": "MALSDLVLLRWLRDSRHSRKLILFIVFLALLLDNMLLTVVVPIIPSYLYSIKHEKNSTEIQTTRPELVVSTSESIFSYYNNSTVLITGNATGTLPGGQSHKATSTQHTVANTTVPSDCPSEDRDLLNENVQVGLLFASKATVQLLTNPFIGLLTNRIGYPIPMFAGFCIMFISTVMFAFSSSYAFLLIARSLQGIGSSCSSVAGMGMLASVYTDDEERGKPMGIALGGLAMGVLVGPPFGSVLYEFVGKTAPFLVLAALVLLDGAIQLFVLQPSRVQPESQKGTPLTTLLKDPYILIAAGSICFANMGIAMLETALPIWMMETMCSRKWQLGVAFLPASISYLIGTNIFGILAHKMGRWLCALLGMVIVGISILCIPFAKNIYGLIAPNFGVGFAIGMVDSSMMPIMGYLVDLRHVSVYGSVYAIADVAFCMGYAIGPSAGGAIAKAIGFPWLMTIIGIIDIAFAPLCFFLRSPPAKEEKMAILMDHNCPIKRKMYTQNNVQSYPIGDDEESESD", "UniProt Q01827, whole entry V41I": "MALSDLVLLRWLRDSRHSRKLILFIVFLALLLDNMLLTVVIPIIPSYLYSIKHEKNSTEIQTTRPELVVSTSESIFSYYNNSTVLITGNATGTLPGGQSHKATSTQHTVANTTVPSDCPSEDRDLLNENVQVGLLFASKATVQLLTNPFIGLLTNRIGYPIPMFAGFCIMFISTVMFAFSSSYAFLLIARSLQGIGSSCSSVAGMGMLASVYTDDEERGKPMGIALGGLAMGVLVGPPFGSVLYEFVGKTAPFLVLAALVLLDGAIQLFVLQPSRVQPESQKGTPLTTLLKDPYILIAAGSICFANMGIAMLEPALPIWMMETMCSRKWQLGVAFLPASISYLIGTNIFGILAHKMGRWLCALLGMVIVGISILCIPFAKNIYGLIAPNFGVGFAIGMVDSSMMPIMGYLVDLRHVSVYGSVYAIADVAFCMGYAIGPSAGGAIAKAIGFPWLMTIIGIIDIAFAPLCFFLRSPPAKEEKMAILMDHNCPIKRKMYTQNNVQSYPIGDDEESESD", "UniProt Q01827, whole entry": "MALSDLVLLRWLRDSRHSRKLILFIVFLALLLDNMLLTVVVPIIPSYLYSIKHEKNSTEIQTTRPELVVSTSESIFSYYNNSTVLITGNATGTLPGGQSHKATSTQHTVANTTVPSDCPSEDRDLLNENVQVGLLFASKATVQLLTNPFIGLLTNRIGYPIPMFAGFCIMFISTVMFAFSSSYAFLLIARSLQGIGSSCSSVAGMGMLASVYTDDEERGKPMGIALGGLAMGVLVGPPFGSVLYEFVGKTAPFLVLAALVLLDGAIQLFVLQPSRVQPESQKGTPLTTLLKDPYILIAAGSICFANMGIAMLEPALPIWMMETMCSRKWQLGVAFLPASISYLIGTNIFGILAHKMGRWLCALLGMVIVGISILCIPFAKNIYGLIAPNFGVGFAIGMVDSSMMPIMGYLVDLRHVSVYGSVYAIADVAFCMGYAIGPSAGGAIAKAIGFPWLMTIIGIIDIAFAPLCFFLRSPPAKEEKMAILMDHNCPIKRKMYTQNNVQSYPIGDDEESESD", "UniProt Q01827, whole entry V41A": "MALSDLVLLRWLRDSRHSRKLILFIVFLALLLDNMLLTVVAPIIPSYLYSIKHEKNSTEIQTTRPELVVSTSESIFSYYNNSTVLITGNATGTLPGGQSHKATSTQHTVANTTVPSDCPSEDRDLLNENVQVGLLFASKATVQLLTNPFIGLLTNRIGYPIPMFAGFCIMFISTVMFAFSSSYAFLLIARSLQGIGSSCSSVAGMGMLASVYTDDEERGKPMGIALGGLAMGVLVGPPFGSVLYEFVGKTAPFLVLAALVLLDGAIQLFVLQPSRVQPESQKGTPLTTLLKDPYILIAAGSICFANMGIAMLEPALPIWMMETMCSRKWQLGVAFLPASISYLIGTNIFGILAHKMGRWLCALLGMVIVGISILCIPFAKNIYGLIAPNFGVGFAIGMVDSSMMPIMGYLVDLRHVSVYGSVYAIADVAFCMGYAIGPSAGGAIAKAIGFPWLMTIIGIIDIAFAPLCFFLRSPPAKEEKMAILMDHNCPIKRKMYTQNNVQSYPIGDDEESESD", "UniProt Q01827, whole entry V132G": "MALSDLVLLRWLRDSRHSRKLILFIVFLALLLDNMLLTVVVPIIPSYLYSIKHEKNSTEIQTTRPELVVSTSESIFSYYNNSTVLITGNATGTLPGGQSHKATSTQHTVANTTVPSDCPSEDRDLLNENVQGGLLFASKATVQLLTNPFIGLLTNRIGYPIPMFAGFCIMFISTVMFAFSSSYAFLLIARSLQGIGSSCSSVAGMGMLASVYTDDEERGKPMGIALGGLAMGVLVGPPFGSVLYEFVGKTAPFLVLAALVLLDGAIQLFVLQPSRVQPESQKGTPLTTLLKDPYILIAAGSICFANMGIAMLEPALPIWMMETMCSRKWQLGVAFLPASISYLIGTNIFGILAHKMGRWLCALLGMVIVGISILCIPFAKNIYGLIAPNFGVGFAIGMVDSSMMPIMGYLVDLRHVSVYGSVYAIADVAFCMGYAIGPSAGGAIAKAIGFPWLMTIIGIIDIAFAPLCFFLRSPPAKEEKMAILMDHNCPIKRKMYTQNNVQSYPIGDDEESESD", "UniProt Q01827, whole entry G308P": "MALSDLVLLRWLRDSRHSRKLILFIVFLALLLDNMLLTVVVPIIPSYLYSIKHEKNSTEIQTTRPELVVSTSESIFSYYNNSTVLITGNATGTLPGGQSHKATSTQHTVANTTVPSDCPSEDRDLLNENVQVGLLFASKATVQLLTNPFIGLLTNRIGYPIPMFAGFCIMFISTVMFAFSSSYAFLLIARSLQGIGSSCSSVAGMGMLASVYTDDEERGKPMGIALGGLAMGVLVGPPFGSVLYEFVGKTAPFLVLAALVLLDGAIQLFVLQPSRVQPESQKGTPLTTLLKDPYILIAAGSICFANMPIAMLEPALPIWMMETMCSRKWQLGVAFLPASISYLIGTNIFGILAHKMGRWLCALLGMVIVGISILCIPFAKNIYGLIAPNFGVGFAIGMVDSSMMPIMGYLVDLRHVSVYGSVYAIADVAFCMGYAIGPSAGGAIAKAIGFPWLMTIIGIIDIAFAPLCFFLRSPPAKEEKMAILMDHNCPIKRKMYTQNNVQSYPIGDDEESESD", "UniProt Q01827, whole entry P314L": "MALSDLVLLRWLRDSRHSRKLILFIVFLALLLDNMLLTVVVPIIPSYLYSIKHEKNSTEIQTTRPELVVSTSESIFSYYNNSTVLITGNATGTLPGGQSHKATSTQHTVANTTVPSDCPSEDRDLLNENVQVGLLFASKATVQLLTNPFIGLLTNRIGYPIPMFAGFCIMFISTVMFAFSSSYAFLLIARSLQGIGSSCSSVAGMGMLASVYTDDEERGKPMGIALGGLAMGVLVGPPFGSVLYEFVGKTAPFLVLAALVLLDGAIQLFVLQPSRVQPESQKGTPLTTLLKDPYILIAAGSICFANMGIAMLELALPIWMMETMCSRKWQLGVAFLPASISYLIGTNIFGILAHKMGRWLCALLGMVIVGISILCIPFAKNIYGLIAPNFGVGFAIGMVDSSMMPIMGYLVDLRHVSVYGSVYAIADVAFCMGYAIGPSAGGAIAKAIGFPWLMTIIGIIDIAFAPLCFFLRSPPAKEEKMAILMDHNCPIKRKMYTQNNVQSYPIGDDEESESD", "UniProt Q01827, whole entry G308A": "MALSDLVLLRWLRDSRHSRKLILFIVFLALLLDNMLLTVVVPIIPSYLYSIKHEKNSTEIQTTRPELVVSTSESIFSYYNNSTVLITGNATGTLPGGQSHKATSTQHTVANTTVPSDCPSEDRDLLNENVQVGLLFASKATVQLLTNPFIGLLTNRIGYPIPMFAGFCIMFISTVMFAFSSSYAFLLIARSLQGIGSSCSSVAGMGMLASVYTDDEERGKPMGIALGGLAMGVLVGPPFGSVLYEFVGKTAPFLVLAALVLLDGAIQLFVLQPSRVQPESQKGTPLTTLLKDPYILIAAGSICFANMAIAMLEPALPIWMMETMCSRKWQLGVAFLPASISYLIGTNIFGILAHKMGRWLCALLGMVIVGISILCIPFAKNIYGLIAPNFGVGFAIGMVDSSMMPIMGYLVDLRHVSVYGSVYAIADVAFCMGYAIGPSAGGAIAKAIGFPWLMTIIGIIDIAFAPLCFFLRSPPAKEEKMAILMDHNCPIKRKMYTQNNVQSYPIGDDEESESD", "UniProt Q01827, whole entry P314G": "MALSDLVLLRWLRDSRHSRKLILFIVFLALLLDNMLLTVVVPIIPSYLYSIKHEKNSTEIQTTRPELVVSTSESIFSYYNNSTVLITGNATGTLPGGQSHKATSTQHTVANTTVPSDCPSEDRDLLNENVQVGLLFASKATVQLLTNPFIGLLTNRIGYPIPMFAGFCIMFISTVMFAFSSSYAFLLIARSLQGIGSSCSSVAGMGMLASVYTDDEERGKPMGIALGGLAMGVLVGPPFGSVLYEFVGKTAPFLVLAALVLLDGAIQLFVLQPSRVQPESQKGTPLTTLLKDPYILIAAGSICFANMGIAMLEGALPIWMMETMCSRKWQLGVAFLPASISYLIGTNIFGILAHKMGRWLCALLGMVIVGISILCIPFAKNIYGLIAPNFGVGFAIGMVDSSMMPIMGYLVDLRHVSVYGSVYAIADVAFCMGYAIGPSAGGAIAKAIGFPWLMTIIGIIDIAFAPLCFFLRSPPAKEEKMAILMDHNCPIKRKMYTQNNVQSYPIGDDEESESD", "UniProt Q01827, whole entry V132A": "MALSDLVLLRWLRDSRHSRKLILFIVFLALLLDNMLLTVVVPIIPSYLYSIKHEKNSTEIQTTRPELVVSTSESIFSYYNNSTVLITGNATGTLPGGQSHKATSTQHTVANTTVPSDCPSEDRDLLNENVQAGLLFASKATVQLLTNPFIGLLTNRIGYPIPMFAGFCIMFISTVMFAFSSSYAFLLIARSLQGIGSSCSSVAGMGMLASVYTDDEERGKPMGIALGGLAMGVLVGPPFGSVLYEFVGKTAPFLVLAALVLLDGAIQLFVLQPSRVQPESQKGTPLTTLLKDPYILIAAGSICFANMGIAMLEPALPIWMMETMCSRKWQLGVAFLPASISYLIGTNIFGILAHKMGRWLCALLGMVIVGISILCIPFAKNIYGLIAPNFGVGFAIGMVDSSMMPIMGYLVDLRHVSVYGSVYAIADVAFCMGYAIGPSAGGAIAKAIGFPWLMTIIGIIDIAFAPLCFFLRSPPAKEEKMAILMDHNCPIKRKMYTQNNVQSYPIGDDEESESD"}, "source": "BindingDB's records for doi:10.1074/jbc.M113.502971", "about": "(Hebrew University of Jerusalem, 2013)", "test_in_all_cases": "[3H]Serotonin Uptake Assay", "conditions_in_all_cases": "pH 8.5", "key": {"[1]": {"molecular_target": "Synaptic vesicular amine transporter [P314T] (Rat, UniProt Q01827, P314T)"}, "[2]": {"molecular_target": "Synaptic vesicular amine transporter [V41I] (Rat, UniProt Q01827, V41I)"}, "[3]": {"molecular_target": "Synaptic vesicular amine transporter (Rattus norvegicus, UniProt Q01827)"}, "[4]": {"molecular_target": "Synaptic vesicular amine transporter [V41A] (Rat, UniProt Q01827, V41A)"}, "[5]": {"molecular_target": "Synaptic vesicular amine transporter [V132G] (Rat, UniProt Q01827, V132G)"}, "[6]": {"molecular_target": "Synaptic vesicular amine transporter [G308P] (Rat, UniProt Q01827, G308P)"}, "[7]": {"molecular_target": "Synaptic vesicular amine transporter [P314L] (Rat, UniProt Q01827, P314L)"}, "[8]": {"molecular_target": "Synaptic vesicular amine transporter [G308A] (Rat, UniProt Q01827, G308A)"}, "[9]": {"molecular_target": "Synaptic vesicular amine transporter [P314G] (Rat, UniProt Q01827, P314G)"}, "[10]": {"molecular_target": "Synaptic vesicular amine transporter [V132A] (Rat, UniProt Q01827, V132A)"}}, "data": [{"compound": "COC(=O)[C@H]1[C@H]2C[C@@H]3c4[nH]c5cc(OC)ccc5c4CCN3C[C@H]2C[C@@H](OC(=O)c2cc(OC)c(OC)c(OC)c2)[C@@H]1OC", "note": "[Apoplon]", "values": [{"measurement": "IC50", "setting": "[1]", "value": 4.3, "unit": "nM"}, {"measurement": "IC50", "setting": "[2]", "value": 3.7, "unit": "nM"}, {"measurement": "IC50", "setting": "[3]", "value": 2.5, "unit": "nM"}, {"measurement": "IC50", "setting": "[4]", "value": 1.3, "unit": "nM"}, {"measurement": "IC50", "setting": "[5]", "value": "> 100", "unit": "nM"}, {"measurement": "IC50", "setting": "[6]", "value": 2, "unit": "nM"}, {"measurement": "IC50", "setting": "[7]", "value": 4.9, "unit": "nM"}, {"measurement": "IC50", "setting": "[8]", "value": 4.5, "unit": "nM"}, {"measurement": "IC50", "setting": "[9]", "value": 3.8, "unit": "nM"}, {"measurement": "IC50", "setting": "[10]", "value": "> 50", "unit": "nM"}]}]}
